The results in this text go back to paper PMC4690014, “Functional Analysis of Cotton Leaf Curl Kokhran Virus/Cotton Leaf Curl Multan Betasatellite RNA Silencing Suppressors”.

The data set relates to C4 (Trx-His fusion) (Cotton leaf curl Kokhran virus). As to the kind of experiment: EMSA. Particulars: recombinant protein; protein details: N-terminal Trx-His (pET32a); label: 5'-32P; single-stranded DNA. (In EMSA bound probe runs differently from free probe, usually more slowly.)

For at least one entry, the source does not settle the construct or the ends of the probe.

On to “GCGTCGACGTCTTGCTCTAGAGATGTATCCATATGATGTTCCGGATTACGCGGAACGAGCTATACAAGG [69 nt ssDNA (SalI-XbaI-HA-Tag oligo, by length)]”, for which the binding result is recorded as “binds”.
